Measurements reported in patent US7235263B2, “Processes for controlling microbial organic compound production” (Kimberly-Clark Worldwide, Inc., priority 2001, dated 2007).

Experiment: Ammonia content of urine:TSB mixture without bacteria (ammonia probe)
Settings: no bacteria

Compound	Ammonia Produced (n = 3) (Table 3, 5% (w/v) mannitol peroxide in urine:TSB)	Ammonia Produced (n = 3) (Table 3, 10% mannitol peroxide in urine:TSB)	Ammonia Produced (n = 3) (Table 7, 10% mannitol (w/v) in urine:TSB)
mannitol peroxide	12.3 ± 0.5 ppm	13.2 ± 0.9 ppm	
OC[C@@H](O)[C@@H](O)[C@H](O)[C@H](O)CO [Mannitol, mannitol, reference compound]			42.6 ± 0.1 ppm
